# In paper PMC8121815 (Nature Communications, 2021):
# By UniProt entry, the sequences of proteins in these tests, tags left out. Residues count along the entry.
# UniProt O94826, 106-608 H583Q limits assumed: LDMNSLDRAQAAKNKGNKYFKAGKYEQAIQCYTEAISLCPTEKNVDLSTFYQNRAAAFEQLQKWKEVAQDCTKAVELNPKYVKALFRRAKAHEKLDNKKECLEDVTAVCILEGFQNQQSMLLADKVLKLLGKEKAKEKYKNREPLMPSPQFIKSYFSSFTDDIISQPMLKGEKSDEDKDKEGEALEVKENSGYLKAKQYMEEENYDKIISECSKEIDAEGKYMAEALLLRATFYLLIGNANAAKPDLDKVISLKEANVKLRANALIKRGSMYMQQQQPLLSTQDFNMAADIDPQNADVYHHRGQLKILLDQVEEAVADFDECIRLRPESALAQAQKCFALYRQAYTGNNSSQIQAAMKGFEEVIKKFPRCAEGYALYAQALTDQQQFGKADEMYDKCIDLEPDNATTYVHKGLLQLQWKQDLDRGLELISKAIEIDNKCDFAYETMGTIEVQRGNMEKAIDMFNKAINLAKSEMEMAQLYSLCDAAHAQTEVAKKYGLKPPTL
# Experiments:
# [1] = biological target: hTOM70 mutant H583Q (Homo sapiens, UniProt O94826, H583Q); assay: ITC, hTOM70 mutant H583Q
# [2] = test system: hTOM70 mutant E549I; assay: ITC, hTOM70 mutant E549I
smiles,measurement,setting,value
CC[C@H](C)[C@H](N)C(=O)N[C@H](C(=O)N[C@@H](CC(C)C)C(=O)N[C@@H](CCCNC(=N)N)C(=O)N[C@@H](CC(C)C)C(=O)NCC(=O)N[C@@H](CO)C(=O)N1CCC[C@H]1C(=O)N[C@@H](CC(C)C)C(=O)N[C@@H](CO)C(=O)N[C@@H](CC(C)C)C(=O)N[C@@H](CC(N)=O)C(=O)N[C@@H](CCSC)C(=O)N[C@@H](C)C(=O)N[C@@H](CCCNC(=N)N)C(=O)N[C@@H](CCCCN)C(=O)N[C@H](C(=O)N[C@@H](CC(C)C)C(=O)N[C@@H](CC(N)=O)C(=O)N[C@@H](CO)C(=O)N[C@@H](CC(C)C)C(=O)N[C@@H](CCC(=O)O)C(=O)N[C@@H](CC(=O)O)C(=O)N[C@@H](CCCCN)C(=O)N[C@@H](C)C(=O)N[C@@H](Cc1ccccc1)C(=O)N[C@@H](CCC(N)=O)C(=O)O)[C@@H](C)O)[C@@H](C)CC [C-peptide],thermodynamic nature of binding,[1],endothermic
same,impact of mutation on binding,[2],only had a moderate impact on binding
same,thermodynamic nature of binding,[2],endothermic
